# Experimental data: patent publication US20230115711A1, “MICROMOLECULE PI4KIIIalpha INHIBITOR COMPOSITION, PREPARATION METHOD THEREFOR AND USE THEREOF” (published 2023)
# Like-named read-outs stand apart in the source and are kept apart here.
# Assays:
# [1] = Dissolution rate of PAO in vegetable oil (supersaturated solutions, HPLC); details: in the three vegetable oils (tea, sesame, soybean oil)
# [2] = monkeys; single oral sesame oil preparation 0.168 mg/kg
# [3] = In vivo kinetic study of oral and intravenous PAO in beagles (whole blood); details: single oral sesame oil preparation
# [4] = monkeys; single oral administration, MCT preparation
compound,measurement,setting,value
O=[As]c1ccccc1 (stereo not shown),time at which PAO substantially reached dissolution equilibrium,[1],1 h
same,time at which blood concentration reached the maximum,[2],≤ 4 h
same,time at which blood concentration reached the maximum,[3],≤ 4 h
same,time at which blood concentration reached the maximum,[4],≤ 4 h
